Compound potency records, mixed from different reports. Data source: NIAID ChemDB in PubChem.

Common to all: tests in culture

Inhibition is in % at the dose shown (toxicity tests: loss of growth or viability).

structure,agent,strain or isolate,cell line,measure,tested at,result
O=C(O)CCNS(=O)(=O)c1ccc2c(c1)Cc1ccccc1-2,Influenza A virus (H2N2),A2/ADACHI,CEF,inhibition,31.7 µg/mL,0%
C[C@@H](SC1COC(/C=C/C=C/c2ccc(C#N)cc2F)OC1)[C@](O)(Cn1cncn1)c1ccc(F)cc1F,Histoplasma capsulatum,50 strains,,MIC50,,≤0.015 µg/mL
Cc1ccc(C(=O)CCCCOc2ccc(C3=N[C@H](C)CO3)cc2)s1,Poliovirus,TYPE 3,VERO,EC50,,0.14 µM
CC(=O)OC[C@H]1O[C@@H](n2ncc(=O)[nH]c2=S)C(OC(C)=O)C1OC(C)=O,Venezuelan equine encephalitis virus,Trinidad donkey,VERO,EC50,,6.42 µg/mL
CC[C@@H](C(C)C)[C@H](O)[C@@H](O)[C@@H](C)[C@H]1CC[C@H]2[C@@H]3CC(=O)[C@H]4C[C@@H](Br)CC[C@]4(C)[C@H]3CC[C@]12C,Junin virus,IV4454,VERO,EC90,,19.1 µM
Nc1ccn(C[C@@H](CO)OCP(=O)(O)O)c(=O)n1,Monkeypox virus,,LLC-MK2,EC50,,3.7 µg/mL
CC[C@@H](C(C)C)[C@H](O)[C@@H](O)[C@@H](C)[C@H]1CC[C@H]2[C@@H]3CC(=O)[C@@]4(O)C[C@H](O)[C@H](O)C[C@]4(C)[C@H]3CC[C@]12C,Junin virus,IV4454,VERO,EC50,,1.6 µM
C[C@]1(CO)O[C@@H](n2cc(F)c(=O)[nH]c2=O)[C@H](O)[C@@H]1O,Yellow fever virus,,HepG2.2.15,EC50,,>10 µM
Nc1cnn([C@@H]2O[C@H](CO)C(O)C2O)c(=S)n1,Japanese encephalitis virus,Nakayama,VERO,EC50,,465 µg/mL
CC(C)O[C@@H]1[C@H](OC(C)C)[C@@H](COS(=O)(=O)NC(=O)O[C@H]2C[C@@H](OC(=O)c3ccccc3)[C@H](OC(=O)c3ccccc3)[C@@H](COC(=O)c3ccccc3)O2)O[C@H]1n1ccc(=O)[nH]c1=O,African swine fever virus,,VERO,EC50,,50 µg/mL
C[C@H]1[C@H](O)[C@@H](C)/C=C/C=C/C=C/C=C/C=C/C=C/C=C/[C@H](O[C@@H]2O[C@H](C)[C@@H](O)[C@H](N)[C@@H]2O)C[C@@H]2O[C@](O)(C[C@@H](O)C[C@@H](O)CC[C@H](O)[C@@H](O)C[C@@H](O)CC(=O)O[C@H]1C)C[C@H](O)[C@H]2C(=O)O,Histoplasma capsulatum,7 isolates,,MIC,,0.16–2.5 µg/mL
CC(=O)O[C@H]1C[C@H](n2cc(C)c(=O)[nH]c2=O)O[C@@H]1COS(=O)(=O)NC(=O)O[C@H]1O[C@H](COC(=O)c2ccccc2)[C@@H](OC(=O)c2ccccc2)[C@H](OC(=O)c2ccccc2)[C@H]1OC(=O)c1ccccc1,African swine fever virus,,VERO,EC50,,10 µg/mL
CC[C@@H](C(C)C)[C@@H](O)[C@H](O)[C@@H](C)[C@H]1CC[C@H]2[C@@H]3CC(=O)[C@H]4C[C@@H](Br)CC[C@]4(C)[C@H]3CC[C@]12C,Junin virus,IV4454,VERO,EC90,,3.6 µM
Cc1cn([C@H]2OC(C)(CO)[C@H](O)[C@@H]2O)c(=O)[nH]c1=O,Yellow fever virus,,HepG2.2.15,EC50,,>10 µM
CC(=O)OC[C@H]1O[C@H](OC(=O)NS(=O)(=O)OC[C@H]2O[C@@H](n3ccc(=O)[nH]c3=O)[C@H](OC(C)C)[C@@H]2OC(C)C)[C@H](OC(C)=O)[C@@H](OC(C)=O)[C@@H]1OC(C)=O,African swine fever virus,,VERO,EC50,,>100 µg/mL
CC[C@@H](C(C)C)[C@@H](O)[C@H](O)[C@@H](C)[C@H]1CC[C@H]2[C@@H]3CC(=O)[C@H]4C[C@@H](OC(C)=O)CC[C@]4(C)[C@H]3CC[C@]12C,Junin virus,IV4454,VERO,EC90,,14.5 µM
CCOC(=O)c1ccc(OCCCCC(=O)c2ccc(C)s2)cc1,Poliovirus,TYPE 1,VERO,EC50,,>26.72 µM
O=c1cnn([C@@H]2O[C@H](COP(=O)(O)O)[C@@H](O)[C@H]2O)c(=O)[nH]1,Venezuelan equine encephalitis virus,Trinidad donkey,VERO,EC50,,3.9 µg/mL
CC(=O)N[C@H]1[C@H]([C@H](O)[C@H](O)CO)OC(C(=O)O)=C[C@@H]1N=C(N)N,Influenza A virus,H11N9 A/DK/MEM/546/74,MDCK,inhibition,0.08 µM,90%
CC[C@@H](C(C)C)[C@@H](O)[C@H](O)[C@@H](C)[C@H]1CC[C@H]2[C@@H]3CC(=O)[C@@]4(O)C[C@@H](OC(C)=O)CC[C@]4(C)[C@H]3CC[C@]12C,Junin virus,IV4454,VERO,EC90,,29.6 µM
Cc1ccc(C(=O)CCCCCCOc2ccc(C3=NCCO3)cc2Cl)s1,Poliovirus,TYPE 3,VERO,EC50,,1.55 µM
O=c1cnn([C@@H]2O[C@H](CO)[C@@H](O)[C@H]2O)c(=S)[nH]1,Venezuelan equine encephalitis virus,Trinidad donkey,VERO,EC50,,1.85 µg/mL
CC(=O)O[C@H]1C[C@H](n2ccc(=O)[nH]c2=O)O[C@@H]1COS(=O)(=O)NC(=O)O[C@H]1O[C@H](COC(=O)c2ccccc2)[C@@H](OC(=O)c2ccccc2)[C@H](OC(=O)c2ccccc2)[C@H]1OC(=O)c1ccccc1,African swine fever virus,,VERO,EC50,,50 µg/mL
Cc1ccc(C(=O)CCCCCCOc2ccc(C3=NCCO3)cc2)s1,Poliovirus,TYPE 2,VERO,EC50,,5.39 µM
Nc1ccn([C@@H]2C=C(CO)[C@@H](O)[C@H]2O)c(=O)n1,Monkeypox virus,MPX,MK2,EC50,,0.1 µg/mL
CC(C)O[C@@H]1[C@H](OC(C)C)[C@@H](COS(=O)(=O)NC(=O)O[C@@H]2C[C@@H](OC(=O)c3ccccc3)C[C@@H](COC(=O)c3ccccc3)O2)O[C@H]1n1ccc(=O)[nH]c1=O,African swine fever virus,,VERO,EC50,,50 µg/mL
C[C@]1(CO)O[C@@H](n2ccc(=O)[nH]c2=O)[C@H](O)[C@@H]1O,Yellow fever virus,,HepG2.2.15,EC50,,>10 µM
NC(=O)c1csc([C@@H]2O[C@H](CO)[C@@H](O)[C@H]2O)n1,Variola virus,Isolate Yamada,LLC-MK2,EC50,,3.9 µg/mL
Nc1ncnc2c1ncn2[C@@H]1C[C@H](NC=O)[C@@H](O)[C@H]1O,Yellow fever virus,,HFF,EC50,,>100 µg/mL
CC[C@@H](C(C)C)[C@H](O)[C@@H](O)[C@@H](C)[C@H]1CC[C@H]2[C@@H]3CC(=O)[C@@]4(O)C[C@@H](OC(C)=O)CC[C@]4(C)[C@H]3CC[C@]12C,Junin virus,IV4454,VERO,EC50,,2 µM
Nc1nccc2c1ncn2[C@@H]1C[C@H](CO)[C@@H](O)[C@H]1O,Monkeypox virus,,LLC-MK2,EC50,,0.8 µg/mL
CC(=O)OC[C@H]1O[C@@H](n2ncc(=S)[nH]c2=O)C(OC(C)=O)C1OC(C)=O,Japanese encephalitis virus,Nakayama,VERO,EC50,,23.1 µg/mL
O=C(NS(=O)(=O)OC[C@H]1O[C@@H](n2ccc(=O)[nH]c2=O)[C@H](O)[C@@H]1O)O[C@@H]1C[C@@H](OC(=O)c2ccccc2)[C@H](OC(=O)c2ccccc2)[C@@H](COC(=O)c2ccccc2)O1,African swine fever virus,,VERO,EC50,,>100 µg/mL
Nc1ncnc2c1ncn2[C@@H]1C=C(CO)[C@@H](O)[C@H]1O,Cowpox virus,CPX,VERO,EC50,,>100 µg/mL

Repeating the first 5 entries:

structure,agent,strain or isolate,cell line,measure,tested at,result
O=C(O)CCNS(=O)(=O)c1ccc2c(c1)Cc1ccccc1-2,Influenza A virus (H2N2),A2/ADACHI,CEF,inhibition,31.7 µg/mL,0%
C[C@@H](SC1COC(/C=C/C=C/c2ccc(C#N)cc2F)OC1)[C@](O)(Cn1cncn1)c1ccc(F)cc1F,Histoplasma capsulatum,50 strains,,MIC50,,≤0.015 µg/mL
Cc1ccc(C(=O)CCCCOc2ccc(C3=N[C@H](C)CO3)cc2)s1,Poliovirus,TYPE 3,VERO,EC50,,0.14 µM
CC(=O)OC[C@H]1O[C@@H](n2ncc(=O)[nH]c2=S)C(OC(C)=O)C1OC(C)=O,Venezuelan equine encephalitis virus,Trinidad donkey,VERO,EC50,,6.42 µg/mL
CC[C@@H](C(C)C)[C@H](O)[C@@H](O)[C@@H](C)[C@H]1CC[C@H]2[C@@H]3CC(=O)[C@H]4C[C@@H](Br)CC[C@]4(C)[C@H]3CC[C@]12C,Junin virus,IV4454,VERO,EC90,,19.1 µM

Blank or dashed fields: not listed here. MIC50, MIC90 and the like: level of inhibition, or share of isolates inhibited. ECn is the concentration giving n% inhibition of infection, replication or growth. Neighbouring rows are from separate reports. Two numbers with a dash give a range or band.